# Results of single-concentration screens

Source: ChEMBL document CHEMBL3988442, “University of Dundee, Small-Polar-MMV Screening Library” (2021).

A: 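Whole-cell growth test on Mycobacterium tuberculosis, read after 3 days in glucose-containing 7H9 medium; the read-out is not stated. Concentration: 500 µM. Higher reads as more growth inhibition (inferred: compounds with an IC50 in retests scored well above the rest). About 18,000 compounds were tested under these conditions; 7.9% (about 1,400) showed 50% or more at least once.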
B: 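Phenotypic screen: M. tuberculosis growth, cholesterol and DPPC medium, 4 days; the read-out is not stated. Compounds at 500 µM. Direction is inferred from retests: higher values go with more growth inhibition. Of about 18,000 compounds tested this way, about 900 (5%) reached 50% or more in at least one test.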

Values are the deposited “Percent Effect”, in %. How 0% and 100% were set is not recorded. Most values in the screen are low, and negative values occur. Many other results are left out here, so strong results are more common than in the screen. A dash means the value is not listed here; it may have been measured.

| structure | A | B |
|---|---|---|
| `CC(C(=O)N1CCOCC1)S(=O)(=O)c1ccccn1` (centres undefined) | 7.316% | 2.49% |
| `NC1CCN(Cc2ccccc2F)CC1` | 17.44% | 52.31% |
| `Cc1ccc(C(=O)NCc2ccnc(N(C)C)c2)s1` | 56.49% | 52.07% |
| `CCC(C(=O)N1CCC(O)CC1)c1ccccc1` (centres undefined) | 17.06% | - |
| `CCOC(=O)c1cnc(C(=O)Nc2nncs2)c(Cl)c1` | -13.45% | - |
| `CC(=O)Nc1ccc(C2=NN=C(NC3CC3)SC2)cc1` | 38.78% | -2.725% |
| `O=C(NC1CCN(C2CCCC2)CC1)c1cnc[nH]1` | - | 0.7842% |
| `O=C(CCc1nc(-c2ccncc2)no1)NC1CC1` | - | -16.94% |
| `NCc1ccc(C(=O)NC2CC2)cc1` | 11.56% | 3.162% |
| `COc1ccc2c(c1)CCC(N)C2` (centres undefined) | 21.8% | - |
| `Cc1nnnn1CC(=O)NCc1ccco1` | 0.5563% | 0.8983% |
| `C=C(Br)CNC(=O)C1CC(=O)N(CC(C)C)C1` (centres undefined) | 33.69% | - |
| `CNCC1CCCN(C(=O)c2cc(F)ccc2C)C1` (centres undefined) | 6.998% | - |
| `O=S(=O)(C1CC1)N1CCC(NCc2ccco2)CC1` | - | -6.869% |
| `CNC(=O)C1CCCCN1Cc1cc(OC)ccn1` (centres undefined) | - | -8.596% |
| `CCC(C)Oc1cc(C(=O)NCC2(O)CCC2)ccn1` (centres undefined) | - | 60.22% |
| `NCCc1ccc(N2CCOCC2)c(F)c1` | 53.31% | - |
| `CCCc1nc(C)cc(NCCN(C)S(C)(=O)=O)n1` | 8.459% | - |
| `CC(C)C(CCO)NC(=O)c1nccc2ccccc12` (centres undefined) | - | 0.9315% |
| `CCCn1cc(S(=O)(=O)NC(CC)[C@H]2C[C@@H](O)C2)cn1` (some centres undefined) | - | 7.942% |
| `COCCCNC(=O)NC(=O)c1ccccc1` | - | 10.97% |
| `O=C(c1ccco1)N1CCCN(Cc2cscn2)CC1` | 29.44% | 78.72% |
| `CN(C)c1ncc(CN2CCCC(O)(CO)CC2)cn1` (centres undefined) | - | 29.4% |
| `COc1cccc(CN(C)CC(C)(C)S(C)(=O)=O)c1` | 49.21% | - |
| `COCc1cccc(C(=O)NC(C)COC)c1` (centres undefined) | 21.67% | - |
| `COc1ccc(CC(=O)N(C)C)c(OC)c1OC` | -3.92% | -9.263% |
| `O=S(=O)(NCCNCc1sccc1Cl)c1cccnc1` | -0.6465% | - |
| `CCOCCc1nnc(N)s1` | - | 0.007434% |
| `Cc1cc(NC(=O)c2ccc(Cl)cn2)nc(=O)[nH]1` | -5.952% | - |
| `CS(=O)(=O)N1CCC(CN)C1` (centres undefined) | 3.437% | - |
| `NC(=O)CN1CCCN(c2nc3ccccc3o2)CC1` | 8.197% | - |
| `Oc1ccc2c(c1)COC2` | 8.359% | - |
| `CCC(=O)NCCCN1CCc2ccccc2C1` | 21.11% | 7.026% |
| `CCCn1cc(C(=O)NCC(F)(F)F)c(C)n1` | 11.52% | - |
| `Cc1ccc(C(=O)NCC(C)(C)N(C)C)o1` | -0.7409% | - |
| `CS(=O)(=O)NCC1CCCN(c2ncc(Cl)cc2F)C1` (centres undefined) | 75.38% | 63.95% |
| `Cc1ncsc1CCCNC(=O)CNC(=O)N(C)C` | 3.189% | - |
| `CCNC(=O)CNc1ccc2c(Cl)ccnc2c1F` | - | 2.552% |
| `COc1cccc(CNC(=O)N2CCSCC2)c1OC` | 14.32% | - |
| `CC(C)(C)NC(=O)C1CCCC1` | 4.9% | - |
| `Cn1cc(NC(=O)C2=Cc3ccccc3OC2)cn1` | 57.23% | - |
| `OCCCSc1ccncc1NCc1cccc(O)c1` | 7.002% | - |
| `Cn1cc(CNC(=O)c2cccc(I)c2)cn1` | 56.39% | 31.85% |
| `COCc1nc(CN2CCCC2c2nccs2)no1` (centres undefined) | 4.37% | - |
| `CS(=O)(=O)n1cc(N)cn1` | - | 7.692% |
| `NS(=O)(=O)CCNC(=O)c1ccc(-c2cccs2)s1` | -1.578% | -25.58% |
| `NC(=O)CCS(=O)(=O)CCN1CCc2ccccc2C1` | 24.79% | 17.22% |
| `CCNCc1ccc2c(c1)OCO2` | 62.73% | 31.3% |
| `NC1CCCN(Cc2ccccc2OCCO)CC1` (centres undefined) | 24.65% | - |
| `CC(O)(C1CCNCC1)C(F)(F)F` (centres undefined) | - | 3.374% |
| `CC(C)c1cccc(CN[C@H](CO)C(C)C)n1` | 57.7% | - |
| `CCCNC(=O)CSCc1nc(-c2ccccc2)no1` | 80.63% | 76.68% |
| `OC(CN1CCn2ccnc2C1)c1ccc(F)cc1` (centres undefined) | 63.44% | - |
| `CN1CCOC(C(=O)Nc2ncc(Cl)s2)C1` (centres undefined) | 54.09% | - |
| `CN(C)c1cc(CNc2ccc(C#N)cn2)ccn1` | 60.27% | 70.54% |
| `CC(C)Sc1ccccc1NS(=O)(=O)N(C)C` | 65.87% | 52.19% |
| `Cc1ccc(Cl)cc1NCC(=O)N1CCNC1=O` | 12.51% | - |
| `CC(CO)NC(=O)Nc1nc(-c2ccccc2)ns1` (centres undefined) | -6.699% | - |
| `CC(C)CC(=O)Nc1ccc(N2CCN(C)CC2)cc1` | 6.678% | - |
| `NS(=O)(=O)c1ccccc1-c1ccccc1` | - | 21.97% |
| `NC1(c2nc(=O)c3c([nH]2)CCC3)CCCC1` | - | -4.307% |
| `NCCCOC1CCN(C(=O)c2ccc(Br)o2)CC1` | 52.04% | 31.5% |
| `CCOC(=O)C1CCCN(Cc2cccnc2)C1` (centres undefined) | - | 15.56% |
| `CC(N)c1cccc(OCc2ccccn2)c1` (centres undefined) | 39.59% | - |
| `CN(CC(N)=O)Cc1cccc(OCC(F)(F)F)c1` | - | 39% |
| `CCN1CCN(C(=O)C2CCCOC2)c2ccccc21` (centres undefined) | 81.85% | -3.203% |